Measured values from several laboratories, pooled; numbers as filed in NIAID ChemDB.

All rows: tests on isolated targets; organism: HIV-1; protein: Reverse transcriptase; method: RT activity; endpoint: IC50

Blank or dashed fields: not listed here. Lines come from different laboratories, so protocols vary. ICn: concentration for n% inhibition.

compound,mutations,strain or isolate,value
CC(C)=CCN1C(C)C(=O)Nc2ccc(Cl)cc2S1(=O)=O,RT-Y181C,IIIB,>30 µM
CC1=CC(C2OC(CN3C(=O)CS[C@@H]3C3OC(n4ccc(=O)[nH]c4=O)[C@@H](O)[C@H]3O)[C@@H](O)[C@H]2O)C(=O)NC1=O,-,-,12.9 µM
CC[C@@H]1O[C@@H]([C@]2(C)C[C@@H](C)[C@](O)([C@]3(C)CC[C@@H]([C@@H](O)[C@]4(O)O[C@H](C[C@@]5(O)O[C@@H]([C@@H](C)[C@H](O)C[C@@H]6O[C@H]([C@@H](C)C(=O)O)[C@@H](C)C[C@H]6C)CC[C@@H]5C)[C@@H](C)C[C@H]4C)O3)O2)CC[C@@]1(C)O,-,-,>100 µg/mL
CC(=O)OC1C(=O)C2=C(C(=O)CC3C(C)(C)[C@@H](O)CC[C@]23C)[C@]2(C)[C@H](O)C[C@H]([C@H](C)CC(=O)CC(C)C(=O)O)[C@@]12C,-,-,>250 µM
CC(C)=CCN1C(=O)c2cccn2-c2ccc(Cl)cc2S1(=O)=O,RT-Y181C,IIIB,>30 µM
C[C@H](CC(=O)C[C@@H](C)[C@H]1CC(=O)[C@@]2(C)C3=C(C(=O)C[C@]12C)[C@@]1(C)CCC(=O)C(C)(C)[C@@H]1C[C@@H]3O)C(=O)O,-,-,>250 µM
Cc1cn([C@H]2C[C@H](N=[N+]=[N-])[C@@H](COP(=O)(O)OP(=O)(O)OP(=O)(O)O)[C@@H]2F)c(=O)[nH]c1=O,-,-,13.9 µM
Cc1cn([C@H]2C=C[C@@H](COP(=O)(O)OP(=O)(O)OP(=O)(O)O)O2)c(=O)[nH]c1=O,-,-,0.007 µM
CC(C)=CCN1C(=O)Nc2ccc(Cl)cc2S1(=O)=O,RT-L100I,IIIB,>30 µM
C=CCNC(C)Cn1c(=S)[nH]c2ccccc21,-,-,>100 µg/mL
CC(C)C(C)/C=C/[C@@H](C)[C@H]1CCC2C3=C[C@@H](O)[C@@]4(O)C[C@@H](O)CC[C@]4(C)C3CC[C@@]21C,-,-,>250 µM
CC(=O)c1ccc(C)cc1NC(C(N)=O)c1c(Cl)cccc1Cl,RT-V106A,IIIB,12 µM
O=c1cc(-c2ccccc2)oc2cc(O[C@H]3O[C@H](CO)[C@@H](O)[C@H](O)[C@@H]3O)c(OCc3ccccc3)c(O)c12,-,-,>1000 µg/mL
COc1ccccc1N1CCN(C(=O)c2cc3cc4c(cc3[nH]2)OCO4)CC1,-,IIIB,2.5 µM
CC1=CC(C2O[C@H](CO)C(N3C(=O)CS[C@H]3C3OC(n4ccc(=O)[nH]c4=O)[C@@H](O)[C@H]3O)[C@H]2O)C(=O)NC1=O,-,-,>100 µM
O=c1cc(-c2ccccc2)oc2cc(O[C@H]3O[C@H](CO)[C@H](O)[C@H](O)[C@H]3O)c(OCc3ccccc3)c(O)c12,-,-,>1000 µg/mL
C=C1CC[C@@H]2[C@H]([C@H]3[C@H]1CC[C@]3(C)[C@@H](CC(C)C)c1c(O)c(C=O)c(O)c(C=O)c1O)C2(C)C,-,-,8.4 µM
CCCN(C)c1nc([C@@H](C)c2c(F)cccc2F)c(C)c(=O)[nH]1,-,-,>0.975 µM
CC(C)Nc1cccnc1N1CCN(C(=O)c2cc3cc4c(cc3[nH]2)OCO4)CC1,-,IIIB,0.23 µM
C[C@H](CC(=O)C[C@@H](C)[C@H]1C[C@H](O)[C@@]2(C)C3=C(C(=O)C[C@]12C)[C@@]1(C)CCC(=O)C(C)(C)[C@@H]1C[C@@H]3O)C(=O)O,-,-,>250 µM
CC(C)CC(c1c(O)c(C=O)c(O)c(C=O)c1O)C1CCC(C)C2=CC(C(C)(C)O)CCC21C,-,-,8.1 µM
CC(C)=CCN1Cc2cccc3[nH]c(=S)n(c23)C[C@@H]1C,-,RT-WT,0.9 µM
CC[C@@H](O)[C@]1(C)C[C@H](C)[C@@](O)([C@H]2C[C@H](C)[C@H]([C@]3(C)CC[C@H]([C@@H]4CC[C@@]5(O[C@H]([C@@H](C)[C@@H](OC)[C@H](C)C(=O)O)[C@H](C)[C@@H](OC)[C@H]5C)O4)O3)O2)O1,-,-,>100 µg/mL
COC(=O)[C@H](C)NP(=O)(OC[C@@H]1C=C[C@H](n2cc(C)c(=O)[nH]c2=O)O1)Oc1ccccc1,-,-,>100 µM
Cc1cn([C@H]2CC[C@@H](OP(=O)(O)OP(=O)(O)OP(=O)(O)O)C2)c(=O)[nH]c1=O,-,-,7.9 µM
CC(=O)O[C@@H]1C(=O)C2=C(C(=O)C[C@H]3C(C)(C)[C@@H](O)CC[C@]23C)[C@]2(C)C(=O)C[C@H]([C@@H](C)CC(=O)C[C@@H](C)C(=O)O)[C@@]12C,-,-,>250 µM
CCc1c([Se]c2ccccn2)n(COCc2ccccc2)c(=O)[nH]c1=O,-,RT-WT,0.07 µM
Cc1cn([C@@H]2O[C@H](CO[Si](C)(C)C(C)(C)C)C3(OS(=O)(=O)C=C3N)[C@H]2O[Si](C)(C)C(C)(C)C)c(=O)n(C)c1=O,RT-P225H,IIIB,6.6 µM
CCOc1ccccc1N1CCN(C(=O)c2cc3cc4c(cc3[nH]2)OCO4)CC1,-,IIIB,1.4 µM
O=C(O)[C@H]1O[C@@H](Oc2cc3oc(-c4ccccc4)cc(=O)c3c(O)c2O)[C@H](O)[C@@H](O)[C@@H]1O,-,-,65.88 µg/mL
CCc1c(Sc2ccccc2)n(COCc2ccccc2)c(=O)[nH]c1=O,-,RT-WT,0.2 µM
CC(=O)OC[C@H]1O[C@@H](Oc2cc3oc(-c4ccccc4)cc(=O)c3c(OCc3ccccc3)c2OCc2ccccc2)[C@@H](OC(C)=O)[C@@H](OC(C)=O)[C@@H]1OC(C)=O,-,-,>1000 µg/mL
COC1CCC(OC2CC(C3OC(O)(CO)C(C)CC3C)OC2C2(C)CCC(C3(C)CCC4(CC(O)C(C)C(C(C)C5OC(O)(CC(=O)O)C(C)C(OC6CCC(OC)C(C)O6)C5OC)O4)O3)O2)OC1C,-,-,>100 µg/mL
CC(C)=CCOc1cc(NC(=S)c2ccoc2C)ccc1Cl,-,IIIB,0.023 µM
Nc1ncnc2c1ncn2[C@H]1CC[C@@H](COP(=O)(O)OP(=O)(O)OP(=O)(O)O)O1,-,-,0.45 µM
CC(Cn1c(=S)[nH]c2ccccc21)NCc1ccccc1,-,-,>100 µg/mL
CC(=O)OC[C@H]1O[C@H](Oc2cc3oc(-c4ccccc4)cc(=O)c3c(OCc3ccccc3)c2OCc2ccccc2)[C@@H](OC(C)=O)[C@@H]1OC(C)=O,-,-,>1000 µg/mL
Nc1cccc2c1ccn2[C@H]1CC[C@@H](COP(=O)(O)OP(=O)(O)OP(=O)(O)O)O1,-,-,23.7 µM
Cc1cn([C@H]2CC[C@@H](COP(=O)(O)OP(=O)(O)OP(=O)(O)O)[C@@H]2F)c(=O)[nH]c1=O,-,-,16.5 µM

Again, the opening 5 rows:

CC(C)=CCN1C(C)C(=O)Nc2ccc(Cl)cc2S1(=O)=O ; mutations: RT-Y181C ; strain or isolate: IIIB ; value: >30 µM
CC1=CC(C2OC(CN3C(=O)CS[C@@H]3C3OC(n4ccc(=O)[nH]c4=O)[C@@H](O)[C@H]3O)[C@@H](O)[C@H]2O)C(=O)NC1=O ; value: 12.9 µM
CC[C@@H]1O[C@@H]([C@]2(C)C[C@@H](C)[C@](O)([C@]3(C)CC[C@@H]([C@@H](O)[C@]4(O)O[C@H](C[C@@]5(O)O[C@@H]([C@@H](C)[C@H](O)C[C@@H]6O[C@H]([C@@H](C)C(=O)O)[C@@H](C)C[C@H]6C)CC[C@@H]5C)[C@@H](C)C[C@H]4C)O3)O2)CC[C@@]1(C)O ; value: >100 µg/mL
CC(=O)OC1C(=O)C2=C(C(=O)CC3C(C)(C)[C@@H](O)CC[C@]23C)[C@]2(C)[C@H](O)C[C@H]([C@H](C)CC(=O)CC(C)C(=O)O)[C@@]12C ; value: >250 µM
CC(C)=CCN1C(=O)c2cccn2-c2ccc(Cl)cc2S1(=O)=O ; mutations: RT-Y181C ; strain or isolate: IIIB ; value: >30 µM